The results in this text go back to US6488953B2, “Oral transmucosal delivery” (Controlled Therapeutics (Scotland) Ltd., priority 1998, dated 2002).

This series in a line: Loading of model peptides into polymers of different ESU. In kind it is physicochemical. The arrangement: key: +: Good uptake; −: no uptake.

For “Bovine Serum Albumin: model peptide, molecular wt 60,000”, the uptake into polymer result (polymer E.S.U. 280 %) is recorded as “−”, the uptake into polymer entry (polymer E.S.U. 490 %) is on record as “−” and the uptake into polymer entry (polymer E.S.U. 1120 %) is on record as “+”.

For Lysozyme, the uptake into polymer result is, setting by setting: (polymer E.S.U. 280 %) “−”; (polymer E.S.U. 733 %) “+”; (polymer E.S.U. 1120 %) “+”.

Consider Melanostatin, for which the uptake into polymer entry (polymer E.S.U. 280 %) is listed as “+”, the uptake into polymer result (polymer E.S.U. 490 %) is reported as “+”, the uptake into polymer entry (polymer E.S.U. 733 %) was “+” and the uptake into polymer entry (polymer E.S.U. 1120 %) is “+”.

Myoglobin: the uptake into polymer entry was “−” (polymer E.S.U. 280 %), “−” (polymer E.S.U. 490 %), “+” (polymer E.S.U. 733 %) and “+” (polymer E.S.U. 1120 %).
